# Source: patent publication US20210340224A1 (BEIJING WISDOMAB BIOTECHNOLOGY, published 2021)
# T1: G protein (GCVS11) of wild-type rabies virus strain CVS-11 (rabies virus strain CVS-11, UniProt O92284 20-459)
# T1 sequence: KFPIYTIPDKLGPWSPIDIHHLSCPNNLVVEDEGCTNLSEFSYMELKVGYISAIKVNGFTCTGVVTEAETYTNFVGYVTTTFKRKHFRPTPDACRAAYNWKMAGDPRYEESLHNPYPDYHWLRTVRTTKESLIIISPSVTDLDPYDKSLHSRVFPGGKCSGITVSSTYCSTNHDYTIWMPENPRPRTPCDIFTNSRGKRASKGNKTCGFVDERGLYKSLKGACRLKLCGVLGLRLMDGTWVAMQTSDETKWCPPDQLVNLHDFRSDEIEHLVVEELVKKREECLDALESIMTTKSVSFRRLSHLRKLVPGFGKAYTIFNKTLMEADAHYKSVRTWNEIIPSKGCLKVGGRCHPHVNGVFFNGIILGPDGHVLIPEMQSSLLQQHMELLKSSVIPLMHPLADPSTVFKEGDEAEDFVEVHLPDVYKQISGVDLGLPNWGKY
# B1: fully human monoclonal antibody C34m (antibody, V domains shown)
# VH: QVQLVESGGGVVQPGRSLRLSCAASGFTFGSYGMHWVRQAPGKGLEWVATISYDGSIKDYADSVKGRFTISRDNSKNTLYLQMNSLRAEDTAVYYCAKGDRTGNLDYWGQGTLVTVSS
# VL: DIQMTQSPSSLSASVGDRVTITCRASQNIRNALNWYQQKPGKAPKLLIYDASTRQSGVPSRFSGSGSGTDFTLTISSLQPEDFATYYCQQNSEFPPTFGQGTKVEIKR
# B2: bispecific antibody S2E3-scFv-FcH+C34m-IgG1K (bispecific antibody)
# scFv: QVQLVQSGAEVKKPGSSVKVSCKASGGTYSGYTINWVRQAPGQGLEWMGGIIPIFGTANYAQRFQGRLTITADESTSTAYMELSSLRSDDTAVYFCARENLDNSGTYYYFSGWFDPWGQGTLVTVSSGGGGSGGGGSGGGGSQSALTQPRSVSGSPGQSVTISCTGTSSDLGGYDFVSWYQQHPGKAPKLMIYDATKRPSGVPDRFSGSKSGNTASLTISGLQAEDEADYYCCSYAGDYTPGVVFGGGTKLTVLASEPKSSDKTHTCPPCPAPELLGGPSVFLFPPKPKDTLMISRTPEVTCVVVDVSHEDPEVKFNWYVDGVEVHNAKTKPREEQYNSTYRVVSVLTVLHQDWLNGKEYKCKVSNKALPAPIEKTISKAKGQPREPQVCTLPPSREEMTKNQVSLSCAVKGFYPSDIAVEWESNGQPENNYKTTPPVLDSDGSFFLVSKLTVDKSRWQQGNVFSCSVMHEALHNHYTQKSLSLSPGK
# heavy: not shown
# light: not shown
# Target: T1, G protein (GCVS11) of wild-type rabies …
# Test: cell-based or functional assay
row,Binder,"antibody titer by RFFIT, Average value (IU/mg)"
1,B1,2110 IU/mg
2,B2,1740 IU/mg
